According to ChEMBL document CHEMBL5113496, “A systematic exploration of boceprevir-based main protease inhibitors as SARS-CoV-2 antivirals” (Eur J Med Chem, 2022):

Tests used:
Format in all cases: toxicity, cell-based
Conditions in all cases: read-out: Ratio CC50/EC50
[1] = Selectivity index, ratio of CC50 for cytotoxicity against HEK293T/`17 cells assessed as inhibition of cell growth to EC50 for antiviral activity against SARS-CoV2 USA-WA1/2020 infected in African green monkey Vero E6 cells assessed as reduction in viral plaques
[2] = Selectivity index, ratio of CC50 for cytotoxicity against HEK293T/`17 cells assessed as inhibition of cell growth to EC50 for antiviral activity against SARS-CoV2 Delta infected in African green monkey Vero E6 cells assessed as reduction in viral plaques
[3] = Selectivity index, ratio of CC50 for cytotoxicity against HEK293T/`17 cells assessed as inhibition of cell growth to EC50 for antiviral activity against SARS-CoV2 Beta infected in African green monkey Vero E6 cells assessed as reduction in viral plaques

Measured: selectivity ratio

C[C@@H](OC(C)(C)C)[C@H](NC(=O)OCc1ccccc1)C(=O)N1C[C@H]2[C@@H]([C@H]1C(=O)N[C@H](C=O)C[C@@H]1CCNC1=O)C2(C)C
56: all assays above

CC(C)(C)[C@H](NC(=O)OCc1ccccc1)C(=O)N1C[C@H]2[C@@H]([C@H]1C(=O)N[C@H](C=O)C[C@@H]1CCNC1=O)C2(C)C
56: all assays above
